# Library screen at single concentrations

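Growth of Mycobacterium tuberculosis over 3 days (7H9 medium with glucose and tyloxapol); the read-out is not stated. Concentration: 500 µM. Direction is inferred from retests: higher values go with more growth inhibition. Of about 18,000 compounds tested this way, about 1,400 (7.9%) reached 50% or more in at least one test.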

The filed quantity is “Percent Effect” (%).
The record does not define 0% and 100%; most values in the screen are far below 50% and negative numbers occur (in some assays of this library far below -100).
This is part of a subset picked to be rich in strong results.

compound,effect
COCc1nn(Cc2sc(C)nc2C)c(=O)o1,7.616
CC(N)c1ccc(NC(=O)C2CC2)cc1 (stereo unspecified),5.906
NS(=O)(=O)CCC(F)(F)F,3.893
O=S1(=O)CCNCc2ccccc21,-12.63
C1=C(CCNc2ncccn2)CCOC1,-1.316
Cn1ncnc1SCC(=O)N1CCCCC1,-0.05566
NC1CCN(CC2CC2)C1 (stereo unspecified),36.74
Cc1nc(CNC(=O)CC2=CCCCC2)no1,51.14
COCc1nn(CCn2cc(Br)cn2)c(=O)o1,41.83
NC(=O)N1CCC(NCc2sccc2Cl)CC1,3.447
O=C(CC1C=CCC1)N1CCN(Cc2ccco2)CC1 (stereo unspecified),71.63
CCC1c2ccsc2CCN1CC(=O)NC (stereo unspecified),53.51
Cc1nc(NC2CC2)sc1C(=O)NCc1ccncc1,16.5
OCc1noc(-c2ccccc2)n1,18.56
CN1CCN(C2CCN(C(=O)c3ccsc3)C2)CC1 (stereo unspecified),16.9
O=C(Cn1cnnn1)Nc1cccc(-n2cccc2)c1,-11.4
CCC1COCCN1C(=O)CN1Cc2ccccc2C1 (stereo unspecified),9.366
CC(CCc1ccc(O)cc1)NC1(CO)CC1 (stereo unspecified),57.9
CN1CCN(C(=O)C2CCCNC2)CC1 (stereo unspecified),2.285
CN(Cc1nccn1C)C(=O)COCC1CCCO1 (stereo unspecified),0.6454
CC(Oc1ccc(N(C)S(C)(=O)=O)cc1)C(=O)N(C)C (stereo unspecified),2.018
CC(CO)N(C)C(=O)c1cccc2cc[nH]c12 (stereo unspecified),6.081
CCCC(=O)NC1CCNC2(CCC2)C1 (stereo unspecified),4.998
O=C1CCCCCCN1CC(=O)N1CCCS1(=O)=O,8.149
CCOc1cccc(OCCCN2CCNCC2)c1,14.29
Cc1noc(OCC(=O)Nc2ccccc2)n1,7.765
Clc1ccc2oc(N3CCNCC3)nc2c1,30.6
O=C(NCc1ncc[nH]1)Nc1cccc(F)c1,20.34
O[C@H]1CN(Cc2cscn2)C[C@@H]1N1CCCC1,12.18
COC(=O)CCCC(=O)N1CCC2(CCCC2)C1,53.13
Cn1nccc1[C@@H]1OCCC[C@H]1CN,8.217
CCN1CCN(c2ccccc2O)CC1,60.37
CC(C)c1nnc(CN[C@H](CO)C(C)C)o1,12.2
NCCc1nc2c(s1)CCCC2,24.72
Cc1ccccc1CC(=O)N1CCNCC1,17.44
COCCOCCCNC(=O)C(C)(C)n1cc(Br)cn1,16.27
CCCN1CCC(NC(=O)C2CCC2)CC1,-3.596
COc1ccc(C(C)N)c(C)c1OC (stereo unspecified),2.429
O=C1CCN(Cc2cccs2)CC1,40.37
NCc1ccc(CN2CCOCC2)o1,-5.53
OC(CN1CCOC2(CCCC2)C1)c1ccccc1 (stereo unspecified),62.46
CC(C)(C)OC(=O)N1CCN(C2CCC(N)CC2)CC1 (stereo unspecified),46.01
Cc1nc(N)ncc1C(=O)NCC1COCCO1 (stereo unspecified),11.38
CCn1cc(CN2CCN(C3CCOCC3)CC2)cn1,-5.326
CCN(C)C(=O)CCOc1ccccc1C(N)=O,-0.3894
OCCNC1CCC1,-11.39
Cc1cc(Cl)ccc1C(=O)Nc1ccc(C(N)=O)nc1,-2.313
CC(=O)Nc1cccc(CN(C)S(=O)(=O)C(C)C)c1,-7.572
CN(C)c1cc(CNC(=O)NCC2CCOC2)ccn1 (stereo unspecified),0.01208
CN(C)c1ccc(C(=O)NCC2CCCO2)cc1 (stereo unspecified),32.03
NC(=O)c1cnn(-c2ccccn2)c1N,14.82
CCNC(=O)C1(CN)CCC1,5.166
O=C(Nc1nncs1)NC1CCNCC1,-2.188
COCc1noc(-c2ccc(C#N)cc2)n1,-8.994
CC1(C)CCC(CN)O1 (stereo unspecified),6.45
CSCCc1nc(CC2CCS(=O)(=O)C2)n(CCO)n1 (stereo unspecified),0.6413
CC(N)c1c(F)cccc1Cl (stereo unspecified),14.26
Cc1cc(NC(=O)CN2CCCC2C(=O)N(C)C)on1 (stereo unspecified),-0.06833
CCc1ccc(C2CNCCO2)cc1 (stereo unspecified),46.78
CN(C)CCO[C@@H]1COCC[C@H]1NS(C)(=O)=O,2.098
Cn1cc(S(=O)(=O)NCC2(N)CCCCC2)cn1,-0.8875
CN1CCN(CCCNC(=O)c2ccccc2Cl)CC1,10.34
O=C1[C@H]2CNC[C@H]2C(=O)N1Cc1ccccc1,8.401
CC1CN(C2CCN(c3ccncc3Cl)CC2)CCO1 (stereo unspecified),18.59
CN(C)c1ccc(C(=O)N(C)C2(C#N)CCC2)cc1F,80.32
Cc1cc2nc(CN)[nH]c2cc1C,61.26
COc1ccc(OC)c(-n2c(CCN)n[nH]c2=O)c1,-7.193
CC(NS(C)(=O)=O)c1cccnc1 (stereo unspecified),6.611
COCCNCC(=O)Nc1cccc(S(N)(=O)=O)c1,2.489
c1snnc1CN1CCOCC2(CCOCC2)C1,4.781
Cc1ccc(C(CN)N2CCOCC2)o1 (stereo unspecified),34.14
CC(Sc1nnc[nH]1)C(=O)Nc1ccc(C#N)cc1 (stereo unspecified),50.35
COCCNC(C)C(N)=O (stereo unspecified),-9.757
CC(C)CC(=O)NCC(O)c1ccccc1F (stereo unspecified),2.597
O=C(Cn1c(=O)[nH]c(=O)c2ccccc21)N1CCCC1,5.236
Nc1nccnc1C(=O)NC1COc2ccccc2C1 (stereo unspecified),1.921

The last 5 entries again:

{"compound": "CC(Sc1nnc[nH]1)C(=O)Nc1ccc(C#N)cc1", "stereo": "stereo unspecified", "effect": 50.35}
{"compound": "COCCNC(C)C(N)=O", "stereo": "stereo unspecified", "effect": -9.757}
{"compound": "CC(C)CC(=O)NCC(O)c1ccccc1F", "stereo": "stereo unspecified", "effect": 2.597}
{"compound": "O=C(Cn1c(=O)[nH]c(=O)c2ccccc21)N1CCCC1", "effect": 5.236}
{"compound": "Nc1nccnc1C(=O)NC1COc2ccccc2C1", "stereo": "stereo unspecified", "effect": 1.921}

From ChEMBL document CHEMBL3988442, “University of Dundee, Small-Polar-MMV Screening Library” (2021).